This is an account of results in patent US8476222B2, “Isolated peptides from Actinomadura namibiensis” (priority 2006, dated 2013).

The assay relates to Mycovirus (RNA/Influenza A/Aichi). In kind it is cell-based. Conditions: host organism Vero cells.

Molecules are shown by their SMILES.

`CC(C)C[C@@H]1NC(=O)[C@]23CSC[C@H](NC(=O)[C@H](C)NC(=O)[C@H](Cc4ccccc4)NC1=O)C(=O)N[C@H](C(=O)O)CSSC[C@H](NC(=O)[C@@H]1CSC[C@]4(C[C@H](N)C(=O)N[C@@H](CC(=O)O)C(=O)N[C@@H](Cc5c[nH]c6ccccc56)C(=O)N4)C(=O)N[C@@H](CC(C)C)C(=O)N[C@@H](Cc4c[nH]c5ccccc45)C(=O)N[C@@H](CCC(=O)O)C(=O)N1)C(=O)N[C@@H](C2)C(=O)N[C@@H]([C@@H](C)O)C(=O)NCC(=O)N3` [Labyrinthopeptin (III)] had an Inhibition of 44.44 mg/L.
